# Measured values published in patent US5744470A, “Method for treating insomnia” (Eli Lilly and Company, priority 1997, dated 1998).
# System: 5-HT-2 receptor
smiles,measurement,value
"Cc1cc2c(s1)Nc1ccccc1N=C2N1CCN(C)CC1 [olanzapine, 2-methyl-4-(4-methyl-1-piperazinyl)-10H-thieno[2,3-b][1,5]benzodiazepine]",activity at the 5-HT-2 receptor,active
